Pooled drug test results. Numbers come from NIAID ChemDB, via PubChem.

All rows: growth or infection tests; agent: Aspergillus niger; read-out: MIC

Conditions beyond the fields shown may differ between rows.

{"structure": "Cc1nn(-c2ccccc2)c2c1C(c1cccc(Br)c1)C(C#N)=C(N)O2", "strain": "MTCC 282", "value": "250 µg/mL"}
{"structure": "O=C(O)CCNCC(=O)Nc1cccc2c1C(=O)c1ccccc1C2=O", "strain": "VKM F-1119", "value": ">500 µg/mL"}
{"structure": "Clc1ccc(CO/N=C2/c3ccccc3OCC2n2cnnc2)c(Cl)c1", "strain": "ATCC 16401", "value": "64 µg/mL"}
{"structure": "Cc1nn(-c2ccccc2)c2c1C(c1ccccc1Cl)c1c(nc(=S)[nH]c1N)O2", "strain": "MTCC 282", "value": ">1000 µg/mL"}
{"structure": "O=C(NN1C(=O)/C(=C\\c2ccc(Cl)cc2)SC1c1ccccc1)c1ccc(-c2ccccc2)cc1", "strain": "MTCC 8189", "value": "3.12 µg/mL"}
{"structure": "Cc1ccccc1Cn1cc(COC(=O)[C@@H](Cc2cn(Cc3ccccc3C)nn2)NC(=O)OCC(C)(C)C)nn1", "strain": "MTCC 281", "value": "10.1 µM"}
{"structure": "CCOC(=O)/C=C(/C)n1c2c(=O)c3ccccc3c(=O)c=2oc2ccccc21", "strain": "VKM F-1119", "value": "250 µg/mL"}
{"structure": "Cc1ncc(-c2ccc(I)cc2C(=O)N[C@H](C(=O)N[C@@H](C)C(=O)N[C@@H](Cc2cnc[nH]2)C(=O)N2CCC[C@H]2C(=O)O)[C@@H](C)O)[nH]1", "value": "12.5 µg/mL"}
{"structure": "Cc1ccc(C2=NN(Cc3n[nH]c(=S)n3-c3ccccc3)C(=O)CC2)cc1", "value": "7 µg/mL"}
{"structure": "Cc1ccc(C)n1NC(=O)CC(C)Nc1ccccc1O", "strain": "VKM F-1119", "value": "125 µg/mL"}
{"structure": "CCN1CCN(c2nc(Nc3ccc(C#N)c(C(F)(F)F)c3)nc(Oc3ncnc4ccccc34)n2)CC1", "strain": "MTCC 282", "value": ">100 µg/mL"}
{"structure": "O=C(CCN1C(=O)S/C(=C\\c2ccc(O)c(O)c2O)C1=O)Nc1ccccc1S", "value": "12.5 µg/mL"}
{"structure": "COC(=O)[C@H](Cc1cc2ccccc2[nH]1)OC(=O)[C@H](C)NC(=O)[C@H](Cc1cc2ccccc2[nH]1)NC(=O)COc1cc(=O)oc2ccccc12", "value": "12.5 µg/mL"}
{"structure": "O=C(N[C@H](Cc1cn(CCc2ccccc2)nn1)C(=O)OCc1cn(CCc2ccccc2)nn1)OCc1ccccc1", "strain": "MTCC 281", "value": "19.6 µM"}
{"structure": "Cc1nn(-c2ccccc2)c2c1C(c1ccccc1Cl)C(C#N)=C(N)O2", "strain": "MTCC 282", "value": ">1000 µg/mL"}
{"structure": "O=C(NN1C(=O)/C(=C\\c2cccc([N+](=O)[O-])c2)SC1c1ccc(F)cc1)c1ccc(-c2ccccc2)cc1", "strain": "MTCC 8189", "value": "6.25 µg/mL"}
{"structure": "Cc1nn(-c2ccccc2)c2c1C(c1ccc(F)cc1)c1c(nc(=S)[nH]c1N)O2", "strain": "MTCC 282", "value": "1000 µg/mL"}
{"structure": "COC(=O)[C@@H](NC(=O)c1ccccc1-c1cnc(C)[nH]1)[C@@H](C)O", "value": "50 µg/mL"}
{"structure": "Cc1ccc(NC(=O)CCN2C(=O)S/C(=C\\c3ccccc3)C2=O)c(Cl)c1", "value": "25 µg/mL"}
{"structure": "CC(C)(C)COC(=O)N[C@H](Cc1cn(Cc2ccc([N+](=O)[O-])cc2)nn1)C(=O)OCc1cn(Cc2ccc([N+](=O)[O-])cc2)nn1", "strain": "MTCC 281", "value": "9.2 µM"}
{"structure": "C/C=C/[C@@H]1OC(=O)C=C[C@@H]1O", "value": "500 µg/mL"}
{"structure": "C=C1C(=O)O[C@H]2[C@H]1[C@@H](O)C[C@]1(C)[C@@H]2[C@@H](CO)CC[C@H]1O", "strain": "ATCC 6275", "value": "0.25 µg/mL"}
{"structure": "CC(C)(C)COC(=O)N[C@H](Cc1cn(Cc2ccccc2[N+](=O)[O-])nn1)C(=O)OCc1cn(Cc2ccccc2[N+](=O)[O-])nn1", "strain": "MTCC 281", "value": "18.4 µM"}
{"structure": "O=C(COc1cc(=O)oc2ccccc12)N[C@@H](Cc1ccc(O)cc1)C(=O)O", "value": "12.5 µg/mL"}
{"structure": "Fc1ccccc1CO/N=C1\\c2ccccc2OCC1n1cncn1", "strain": "ATCC 16401", "value": "16 µg/mL"}
{"structure": "O=C1CCC(c2ccccc2)=NN1Cc1n[nH]c(=S)n1-c1ccc(Br)cc1", "value": "5 µg/mL"}
{"structure": "Clc1ccccc1C(c1ccccc1)(c1ccccc1)n1ccnc1", "strain": "MTCC 8189", "value": "0.3 µg/mL"}
{"structure": "c1ccc(CO/N=C2\\c3ccccc3OCC2n2cnnc2)cc1", "strain": "ATCC 16401", "value": ">64 µg/mL"}
{"structure": "C=C(C(=O)O[C@H]1CC(C)=CCC/C(CO)=C/[C@H]2OC(=O)C(=C)[C@H]12)C(O)CO", "strain": "ATCC 6275", "value": "0.125 µg/mL"}
{"structure": "Cc1cc(=O)oc2c(C=NCCN=Cc3c([O-])ccc4c(C)cc(=O)oc34)c([O-])ccc12.[O]=[V+2]", "value": "10 µg/mL"}
{"structure": "COC(=O)[C@@H](Cc1ccccc1)NC(=O)CNC(=O)[C@H](Cc1ccccc1)NC(=O)c1ccccc1-c1cnc(C)[nH]1", "value": "25 µg/mL"}
{"structure": "Cc1ccc(Cn2cc(COC(=O)[C@@H](Cc3cn(Cc4ccc(C)cc4)nn3)NC(=O)OCc3ccccc3)nn2)cc1", "strain": "MTCC 281", "value": "9.8 µM"}
{"structure": "COC(=O)[C@H](Cc1ccc(O)cc1)NC(=O)COc1cc(=O)oc2ccccc12", "value": "12.5 µg/mL"}
{"structure": "Cc1nn(-c2ccccc2)c2c1C(c1cccc(Br)c1)c1c(nc(=O)[nH]c1N)O2", "strain": "MTCC 282", "value": "1000 µg/mL"}
{"structure": "C=C1CC(C/C(C)=C/COc2ccc3ccc(=O)oc3c2)OC1=O", "strain": "MTCC 2425", "value": "625 µg/mL"}
{"structure": "C[C@H]1N(C(=O)c2ccc(C(F)(F)F)cc2)C[C@@H](O)O[C@@]1(Cn1cncn1)c1ccc(F)cc1F", "strain": "Isolate 1", "value": "100 µg/mL"}
{"structure": "CCOC(=O)C1/C(=N/Nc2ccc([N+](=O)[O-])cc2[N+](=O)[O-])C=C(c2ccc3ccccc3c2)CC1c1ccc(F)cc1", "strain": "Clinical isolates", "value": "6.25 µg/mL"}
{"structure": "O=C1CCC(c2ccc(Br)cc2)=NN1Cc1n[nH]c(=S)n1-c1ccccc1", "value": "9 µg/mL"}
{"structure": "Brc1ccc(CO/N=C2\\c3ccccc3OCC2n2cncn2)cc1", "strain": "ATCC 16401", "value": "16 µg/mL"}
{"structure": "O=C1CCC(c2ccccc2)=NN1Cc1n[nH]c(=S)n1-c1ccc(Cl)cc1", "value": "6 µg/mL"}
{"structure": "CC(=O)CC(C)n1c2c(=O)c3ccccc3c(=O)c=2oc2ccc(Cl)cc21", "strain": "VKM F-1119", "value": "31.2 µg/mL"}
{"structure": "Cc1ccc(C2C(C#N)=C(N)Oc3c2c(C)nn3-c2ccccc2)cc1", "strain": "MTCC 282", "value": "1000 µg/mL"}
{"structure": "C[C@@H](c1ncncc1F)[C@](O)(Cn1cncn1)c1ccc(F)cc1F", "strain": "ATCC 9642", "value": "1.56 µg/mL"}
{"structure": "O=C(N[C@H](Cc1cn(Cc2ccccc2[N+](=O)[O-])nn1)C(=O)OCc1cn(Cc2ccccc2[N+](=O)[O-])nn1)OCc1ccccc1", "strain": "MTCC 281", "value": "8.9 µM"}
{"structure": "O=C(CCN1C(=O)S/C(=C\\c2cccc(O)c2)C1=O)Nc1ccccc1", "value": "25 µg/mL"}
{"structure": "Clc1ccc(CO/N=C2/c3ccc(Cl)cc3OCC2n2cncn2)c(Cl)c1", "strain": "ATCC 16401", "value": "64 µg/mL"}
{"structure": "Cc1cc(=O)oc2c(C=Nc3ccccc3N=Cc3c([O-])ccc4c(C)cc(=O)oc34)c([O-])ccc12.[O]=[V+2]", "value": "10 µg/mL"}
{"structure": "CC(C)(C)COC(=O)N[C@H](Cc1cn(Cc2ccccc2)nn1)C(=O)OCc1cn(Cc2ccccc2)nn1", "strain": "MTCC 281", "value": "10.6 µM"}
{"structure": "C=C(C(=O)O[C@H]1C[C@]2(C)[C@H]([C@@H](CO)CC[C@H]2O)[C@@H](O)[C@@H]1C(=C)C(=O)OC)C(O)COC(C)=O", "strain": "ATCC 6275", "value": "1 µg/mL"}
{"structure": "O=C(CCN1C(=O)S/C(=C\\c2ccccc2)C1=O)Nc1cccc(O)c1", "value": "6.25 µg/mL"}
{"structure": "Clc1ccc(CO/N=C2/c3ccc(Cl)cc3OCC2n2cnnc2)c(Cl)c1", "strain": "ATCC 16401", "value": ">64 µg/mL"}
{"structure": "O=C(CCN1C(=O)S/C(=C\\c2ccccc2Br)C1=O)Nc1cccc(O)c1", "value": "12.5 µg/mL"}
{"structure": "O=C(N[C@H](Cc1cn(Cc2cccc([N+](=O)[O-])c2)nn1)C(=O)OCc1cn(Cc2cccc([N+](=O)[O-])c2)nn1)OCc1ccccc1", "strain": "MTCC 281", "value": "8.9 µM"}
{"structure": "CC(C)C(NCC(=O)Nc1cccc2c1C(=O)c1ccccc1C2=O)C(=O)O", "strain": "VKM F-1119", "value": ">500 µg/mL"}
{"structure": "Cc1nn(-c2ccccc2)c2c1C(c1ccc(O)cc1)C(C#N)=C(N)O2", "strain": "MTCC 282", "value": "1000 µg/mL"}
{"structure": "COc1ccc(C[C@H](N)C(=O)N[C@H]2[C@@H](O)[C@H](n3cnc4c(N)ncnc43)O[C@@H]2C(=O)O)cc1", "value": ">100 µg/mL"}
{"structure": "O=C1CC(c2ccccc2)N(C(=O)CCl)C(c2ccccc2)C1", "value": ">200 µg/mL"}
{"structure": "CCOC(=O)C1/C(=N/Nc2ccc([N+](=O)[O-])cc2[N+](=O)[O-])C=C(c2ccc3ccccc3c2)CC1c1cccc(Cl)c1", "strain": "Clinical isolates", "value": "6.25 µg/mL"}
{"structure": "O=C(CCN1C(=O)S/C(=C\\c2cccc(O)c2)C1=O)Nc1cccc(O)c1", "value": "12.5 µg/mL"}
{"structure": "O=C1CCC(c2ccc(Cl)cc2)=NN1Cc1n[nH]c(=S)n1-c1ccc(Cl)cc1", "value": "4 µg/mL"}
{"structure": "CCOC(=O)C1/C(=N/Nc2ccc([N+](=O)[O-])cc2[N+](=O)[O-])C=C(c2ccc3ccccc3c2)CC1c1ccc(Cl)cc1", "strain": "Clinical isolates", "value": "6.25 µg/mL"}
{"structure": "COC(=O)[C@H](Cc1c[nH]c2ccccc12)OC(=O)[C@H](Cc1cnc[nH]1)NC(=O)COc1c(Br)c(=O)oc2ccccc12", "value": "12.5 µg/mL"}
{"structure": "CC(C)CC(NCC(=O)Nc1cccc2c1C(=O)c1ccccc1C2=O)C(=O)O", "strain": "VKM F-1119", "value": "125 µg/mL"}
{"structure": "CCOC(=O)C1/C(=N/Nc2ccc([N+](=O)[O-])cc2[N+](=O)[O-])C=C(c2ccc3ccccc3c2)CC1c1ccc([N+](=O)[O-])cc1", "strain": "Clinical isolates", "value": "50 µg/mL"}
{"structure": "COc1ccc(Cc2cn(Cc3ccc(O)cc3)c(/N=C3/NC(=O)NC3=O)n2)cc1", "strain": "ATCC 9642", "value": "≥100 µg/mL"}
{"structure": "Nc1ccc(O)c2ncccc12", "strain": "KCTC 1231", "value": "1.6 µg/mL"}
{"structure": "COC(=O)[C@H](Cc1ccc(O)cc1)NC(=O)[C@@H](NC(=O)[C@H](Cc1ccccc1)NC(=O)COc1c(Br)c(=O)oc2ccccc12)C(C)C", "value": "12.5 µg/mL"}
{"structure": "Cc1ccc(C2=NN(Cc3n[nH]c(=S)n3-c3ccc(Br)cc3)C(=O)CC2)cc1", "value": "8 µg/mL"}
{"structure": "O=C(N/N=C/c1cc([N+](=O)[O-])ccc1O)c1ccc(I)cc1", "strain": "Strain #3", "value": "0.8 µg/mL"}
{"structure": "COC(=O)CNC(=O)[C@@H](NC(=O)CNC(=O)c1cc(I)ccc1-c1cnc(C)[nH]1)C(C)C", "value": "25 µg/mL"}
{"structure": "CS(C)=O", "strain": "MTCC 282", "value": ">100 µg/mL"}

For reference, 10 entries again:

structure,strain,value
C/C=C/[C@@H]1OC(=O)C=C[C@@H]1O,-,500 µg/mL
C=C(C(=O)O[C@H]1C[C@]2(C)[C@H]([C@@H](CO)CC[C@H]2O)[C@@H](O)[C@@H]1C(=C)C(=O)OC)C(O)COC(C)=O,ATCC 6275,1 µg/mL
Cc1nn(-c2ccccc2)c2c1C(c1ccccc1Cl)c1c(nc(=S)[nH]c1N)O2,MTCC 282,>1000 µg/mL
Clc1ccc(CO/N=C2/c3ccccc3OCC2n2cnnc2)c(Cl)c1,ATCC 16401,64 µg/mL
Cc1cc(=O)oc2c(C=NCCN=Cc3c([O-])ccc4c(C)cc(=O)oc34)c([O-])ccc12.[O]=[V+2],-,10 µg/mL
O=C1CCC(c2ccccc2)=NN1Cc1n[nH]c(=S)n1-c1ccc(Cl)cc1,-,6 µg/mL
COC(=O)[C@@H](NC(=O)c1ccccc1-c1cnc(C)[nH]1)[C@@H](C)O,-,50 µg/mL
O=C(CCN1C(=O)S/C(=C\c2ccccc2Br)C1=O)Nc1cccc(O)c1,-,12.5 µg/mL
O=C(COc1cc(=O)oc2ccccc12)N[C@@H](Cc1ccc(O)cc1)C(=O)O,-,12.5 µg/mL
CC(=O)CC(C)n1c2c(=O)c3ccccc3c(=O)c=2oc2ccc(Cl)cc21,VKM F-1119,31.2 µg/mL

Blank or dashed fields: not listed here.